Measured values from several laboratories, pooled; numbers as filed in NIAID ChemDB.

All rows: enzyme or target tests; organism: Hepatitis C virus

ICn is the concentration giving n% inhibition. Two numbers with a dash give a range or band. Blank or dashed fields: not listed here. Conditions beyond the fields shown may differ between rows.

structure | method | strain | target | read-out | result
C=COC(=O)N[C@H](C(=O)N1C[C@H](Oc2cc(-c3ccccc3)nc3cc(OC)ccc23)C[C@H]1C(=O)N[C@]1(C(=O)NS(=O)(=O)C2CC2)C[C@H]1C=C)C(C)(C)C | - | BMS | NS3/NS4A protease | IC50 | <0.05 µM
CN(C(=O)Cc1ccc2c(c1)nc(-c1ccoc1)n2C1CCCCC1)[C@H](Cc1c[nH]c2ccccc12)C(=O)O | - | - | NS5B polymerase | IC50 | 1–5 µM
C=CC1CC1(NC(=O)[C@@H]1C[C@@H](Oc2cc(-c3ccccc3)nc3cc(OC)ccc23)CN1C(=O)[C@@H](NC(=O)OC(C)(C)C)C(C)(C)C)C(=O)NS(=O)(=O)c1ccc([N+](=O)[O-])cc1 | - | BMS | NS3/NS4A protease | IC50 | <0.5 µM
O=C(Nc1ccc2c(c1)B(O)OC2)N[C@H]1CCCCC/C=C\[C@@H]2C[C@@]2(C(=O)NS(=O)(=O)C2CC2)NC(=O)C2C[C@@H](OC(=O)N3Cc4cccc(F)c4C3)CN2C1=O | FRET | - | HCV NS3/4A 1a | IC50 | 5.6 nM
CS(=O)(=O)c1ccc(Oc2ccc(-c3cnc4c(-c5nn[nH]n5)cnn4c3C3CCCCC3)cc2)cc1 | - | - | RNA-dependent RNA polymerase | IC50 | 1–10 µM
C=CCC(NC(=O)C(=O)C(=O)C(CC=C)NC(=O)[C@H](CC1CCCCC1)NC(=O)[C@@H](NC(=O)[C@H](CC(C)C)NN1CCCCC1)[C@@H](C)CC)C(=O)O | - | - | NS3/NS4A serine protease | IC50 | 0.05 µM
CCOC(=O)N[C@H](C(=O)N1C[C@H](Oc2cc(-c3ccccc3)nc3cc(OC)ccc23)C[C@H]1C(=O)N[C@]1(C(=O)NS(=O)(=O)C2CC2)C[C@H]1CC)C(C)C | - | BMS | NS3/NS4A protease | IC50 | <0.05 µM
O=C(O)c1cnn2c(-c3ccccc3-c3ccccc3Oc3ccccc3)ccnc12 | - | - | RNA-dependent RNA polymerase | IC50 | >10 µM
O=C(N[C@H](Cc1ccc(O)cc1)C(=O)O)c1ccc2c(c1)nc(-c1ccoc1)n2C1CCCCC1 | - | - | NS5B polymerase | IC50 | 1–5 µM
CC[C@@H](C=O)NC(=O)[C@@H]1C[C@@H](OC(=O)Nc2cc(Cl)c(N)c(Cl)c2)CN1C(=O)[C@@H](NC(=O)[C@@H](NC(=O)c1cnccn1)C(C)C)C(C)C | - | - | NS3 protease | Ki | >100 µM
O=C(N[C@H]1CCCCC/C=C\[C@@H]2C[C@@]2(C(=O)NS(=O)(=O)C2CC2)NC(=O)C2C[C@@H](OC(=O)N3Cc4cccc(F)c4C3)CN2C1=O)Oc1ccc2c(c1)B(O)OC2 | FRET | - | HCV NS3/4A 1a | IC50 | 4.1 nM
COC(=O)c1cc2ncc(-c3ccc(OC)cc3)c(C3CCCCC3)n2n1 | - | - | RNA-dependent RNA polymerase | IC50 | >10 µM
C=CCC(NC(=O)[C@H](C)NC(=O)[C@@H](NC(=O)[C@@H](NC(C)=O)C(C)C)C(C)C)C(=O)C(=O)C(=O)N[C@@H](C)C(=O)O | - | - | NS3/NS4A serine protease | IC50 | 57 µM
O=C(O)c1cc2nc(-c3ccc(Cl)cc3Cl)cc(-c3ccc(Cl)cc3)n2n1 | - | - | RNA-dependent RNA polymerase | IC50 | >10 µM
CC[C@@H](C=O)NC(=O)[C@@H]1C[C@@H](OCc2noc(C(C)(C)C)n2)CN1C(=O)[C@@H](NC(=O)[C@@H](NC(=O)c1cnccn1)C(C)C)C(C)C | - | - | NS3 protease | Ki | 1–100 µM
O=C(O)COc1ccc2[nH]cc(C[C@H](NC(=O)c3ccc4c(c3)nc(-c3ccoc3)n4C3CCCCC3)C(=O)O)c2c1 | - | - | NS5B polymerase | IC50 | <1 µM
CSCC[C@H](NC(=O)[C@H](CCC(=O)O)NC(=O)[C@@H](N)CC(=O)O)C(=O)N[C@@H](CCC(=O)O)C(=O)N[C@@H](CCC(=O)O)C(=O)N[C@@H](CS)C(=O)O | - | - | NS3/NS4A serine protease | Ki | 0.6 µM
[N-]=[N+]=Nc1ccc(C[C@H](NC(=O)c2ccc3c(c2)nc(-c2ccoc2)n3C2CCCCC2)C(=O)O)cc1OCC(=O)O | - | - | NS5B polymerase | IC50 | <1 µM
C=CCN1c2ccccc2[C@]23CC(=O)N(Cc4ccccc4)C2=NC(C(=O)OC)=C(C(=O)OC)C13 | AlphaScreen | - | Core106 dimerization | IC50 | 2.8 µM
CC[C@H](C)[C@H](NC(=O)[C@H](CC(C)C)NC(=O)[C@@H](CC(C(=O)O)C(=O)O)NC(=O)[C@H](CC(=O)O)NC(C)=O)C(=O)N[C@H](C(=O)N[C@@H](CS)C(=O)O)C1CCCCC1 | - | - | NS3/NS4A serine protease | IC50 | 6.8 µM
CC[C@@H]1C[C@]1(NC(=O)[C@@H]1C[C@@H](Oc2cc(-c3ccccc3)nc3cc(OC)ccc23)CN1C(=O)[C@@H](NC(=O)OC1CCCC1)C(C)C)C(=O)NS(=O)(=O)C1CC1 | - | BMS | NS3/NS4A protease | IC50 | <0.05 µM
O=C(N[C@H](C(=O)O)c1c[nH]c2ccc(O)cc12)c1ccc2c(c1)nc(-c1ccc(S(=O)(=O)O)o1)n2C1CCCCC1 | - | - | NS5B polymerase | IC50 | 1–5 µM
CC(C)CCc1c(-c2ccc(OCc3ccccc3)cc2)nc2cc(C(=O)O)[nH]n2c1=O | - | - | RNA-dependent RNA polymerase | IC50 | 1–10 µM
COc1ccc2c(O[C@@H]3CC4C(=O)NC5C(/C=C\CCCCC[C@H](NC(=O)OC6CCCC6)C(=O)N4C3)C5C(=O)O)cc(-c3csc(NC(C)C)n3)nc2c1 | - | - | NS3/NS4A serine protease | Ki | 0.0003–0.00066 µM
O=C(N[C@H](C(=O)O)c1c[nH]c2ccc(O)cc12)c1ccc2c(c1)nc(-c1ccccc1OCCO)n2C1CCCCC1 | - | - | NS5B polymerase | IC50 | 1–5 µM
C=C[C@@H]1C[C@]1(NC(=O)[C@@H]1C[C@@H](Oc2cc(-c3ccccc3)nc3cc(OC)ccc23)CN1C(=O)[C@@H](NC(=O)OC(C)(C)C)C(C)(C)C)C(=O)NS(=O)(=O)c1ccccc1C | - | BMS | NS3/NS4A protease | IC50 | <0.05 µM
COC(=O)C(NC(=O)c1ccc2c(c1)nc(-c1ccco1)n2C1CCCCC1)c1ccc(OC)c(OC)c1 | - | - | NS5B polymerase | IC50 | 1–5 µM
C=CCC(NC(=O)C(=O)C(=O)C(CC=C)NC(=O)[C@H](CC1CCCCC1)NC(=O)[C@@H](NC(=O)[C@H](CC(C)C)NC(=O)[C@@H](CC(C(=O)O)C(=O)O)NC(=O)[C@H](CC(=O)O)NC(C)=O)[C@@H](C)CC)C(=O)O | - | - | NS3/NS4A serine protease | IC50 | 0.00025 µM
O=C(O)C[C@H](Cc1ccc(-c2nn[nH]n2)cc1)NC(=O)c1ccc2c(c1)nc(-c1ccoc1)n2C1CCCCC1 | - | - | NS5B polymerase | IC50 | <1 µM
COc1ccc(-c2cc(-c3ccc(C(F)(F)F)cc3)nc3cc(C(=O)O)nn23)cc1Cl | - | - | RNA-dependent RNA polymerase | IC50 | 1–10 µM
O=C(O)Cc1cccc(NC(=O)c2ccc3c(c2)nc(-c2ccoc2)n3C2CCCCC2)c1 | - | - | NS5B polymerase | IC50 | 10–25 µM
CC[C@@H](C=O)NC(=O)[C@@H]1C[C@@H](NC(=O)c2ccccc2)CN1C(=O)[C@@H](NC(=O)[C@@H](NC(=O)c1cnccn1)C(C)C)C(C)C | - | - | NS3 protease | Ki | 1–100 µM
O=C(NC(=O)c1ccc2c(c1)nc(-c1ccoc1)n2C1CCCCC1)OCc1ccccc1 | - | - | NS5B polymerase | IC50 | 5–10 µM
CC[C@@H](C=O)NC(=O)[C@H](CC(C)C)NC(=O)[C@@H](NC(=O)[C@@H](NC(=O)c1ccc2cnccc2n1)C(C)C)C(C)C | - | - | NS3 protease | Ki | 1–100 µM
COc1ccc([C@@H](NC(=O)c2ccc3c(c2)nc(-c2ccccn2)n3C2CCCCC2)C(=O)O)cc1 | - | - | NS5B polymerase | IC50 | 1–5 µM
C=CCC(NC(=O)[C@H](C)NC(=O)[C@@H](NC(=O)[C@@H](NC(=O)[C@H](CC(=O)O)NC(C)=O)C(C)C)C(C)C)C(=O)C(=O)C(=O)N[C@@H](C)C(=O)O | - | - | NS3/NS4A serine protease | IC50 | 4 µM
COc1ccc(-c2cc(-c3ccc(Cl)cc3)nc3cc(C(=O)O)nn23)cc1 | - | - | RNA-dependent RNA polymerase | IC50 | >10 µM
Cc1cccc(Oc2cccc(-c3nc4cc(C(=O)N[C@H](C(=O)O)c5c[nH]c6ccc(O)cc56)ccc4n3C3CCCCC3)c2)c1 | - | - | NS5B polymerase | IC50 | 1–5 µM
C=C[C@@H]1C[C@]1(NC(=O)[C@@H]1C[C@@H](Oc2cc(-c3ccccc3)nc3cc(OC)ccc23)CN1C(=O)[C@@H](NC(=O)OC(C)(C)C)C(C)(C)C)C(=O)NS(=O)(=O)C1CCCCC1 | - | BMS | NS3/NS4A protease | IC50 | <0.5 µM
O=C(N[C@H](C(=O)O)c1c[nH]c2ccc(O)cc12)c1ccc2c(c1)nc(C1CCCO1)n2C1CCCCC1 | - | - | NS5B polymerase | IC50 | 1–5 µM
C=C[C@@H]1C[C@]1(NC(=O)[C@@H]1C[C@@H](Oc2cc(-c3ccccc3)nc3cc(OC)ccc23)CN1C(=O)[C@@H](Nc1ccncc1[N+](=O)[O-])C(C)(C)C)C(=O)NS(=O)(=O)C1CC1 | - | BMS | NS3/NS4A protease | IC50 | <5 µM
O=C(N[C@H](C(=O)O)c1c[nH]c2ccc(O)cc12)c1ccc2c(c1)nc(-c1ccno1)n2C1CCCCC1 | - | - | NS5B polymerase | IC50 | 1–5 µM
CC[C@@H](C=O)NC(=O)[C@@H]1C[C@@H](OCc2cccc(OC(F)(F)F)c2)CN1C(=O)[C@@H](NC(=O)[C@@H](NC(=O)c1cnccn1)C(C)C)C(C)C | - | - | NS3 protease | Ki | 1–100 µM
COC(=O)C1=C(C(=O)OC)C2N(CCOCCN3c4ccccc4[C@]45CC(=O)N(Cc6ccccc6)C4=NC(C(=O)OC)=C(C(=O)OC)C35)C3C=CC=CC3[C@@]23CCC(=O)N(Cc2ccccc2)C3=N1 | AlphaScreen | - | Core106 dimerization | IC50 | 0.1 µM
Cc1cccc(-c2nc3cc(C(=O)N[C@H](C(=O)O)c4c[nH]c5ccc(O)cc45)ccc3n2C2CCCCC2)n1 | - | - | NS5B polymerase | IC50 | 5–10 µM
O=C(O)c1cc2nc(-c3ccc(Cl)cc3)cc(-c3ccc(F)cc3)n2n1 | - | - | RNA-dependent RNA polymerase | IC50 | >10 µM
C=C[C@@H]1C[C@]1(NC(=O)[C@@H]1C[C@@H](Oc2cc(-c3ccccc3)nc3cc(OC)ccc23)CN1C(=O)[C@@H](NC(=O)OC(C)(C)C)C(C)(C)C)C(=O)NS(=O)(=O)c1ccc(C#N)cc1 | - | BMS | NS3/NS4A protease | IC50 | <0.05 µM
Cc1cnc(-c2nc3cc(C(=O)N[C@H](C(=O)O)c4c[nH]c5ccc(O)cc45)ccc3n2C2CCCCC2)cn1 | - | - | NS5B polymerase | IC50 | <1 µM

A second listing of 4 rows from above:

O=C(O)c1cc2nc(-c3ccc(Cl)cc3Cl)cc(-c3ccc(Cl)cc3)n2n1 ; target: RNA-dependent RNA polymerase ; read-out: IC50 ; result: >10 µM
COc1ccc2c(O[C@@H]3CC4C(=O)NC5C(/C=C\CCCCC[C@H](NC(=O)OC6CCCC6)C(=O)N4C3)C5C(=O)O)cc(-c3csc(NC(C)C)n3)nc2c1 ; target: NS3/NS4A serine protease ; read-out: Ki ; result: 0.0003–0.00066 µM
O=C(O)C[C@H](Cc1ccc(-c2nn[nH]n2)cc1)NC(=O)c1ccc2c(c1)nc(-c1ccoc1)n2C1CCCCC1 ; target: NS5B polymerase ; read-out: IC50 ; result: <1 µM
COc1ccc([C@@H](NC(=O)c2ccc3c(c2)nc(-c2ccccn2)n3C2CCCCC2)C(=O)O)cc1 ; target: NS5B polymerase ; read-out: IC50 ; result: 1–5 µM